Source: publication doi:10.1101/2020.02.05.936021
Numbering of substitutions follows the chain as printed. Construct, isoform or probe ends are uncertain for at least one entry. At least one verdict was read from the data and is not stated in words by the source. Tags and fusion partners may be left off the protein sequences shown.

Key:
hA3C-GST (Homo sapiens) = target: T1, hA3C-GST (Homo sapiens) (UniProt Q9NRW3); assay: competition with a labelled probe; settings: 500-fold excess over probe, 8 nM protein, disrupted the complex
T1 sequence (looked up, limits assumed): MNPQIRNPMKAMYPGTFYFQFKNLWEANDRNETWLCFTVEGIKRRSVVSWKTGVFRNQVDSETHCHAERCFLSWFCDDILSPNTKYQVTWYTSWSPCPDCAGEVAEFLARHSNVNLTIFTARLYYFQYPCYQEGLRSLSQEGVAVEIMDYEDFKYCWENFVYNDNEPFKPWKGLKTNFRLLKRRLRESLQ

[1] = target: T2, hA3C.WE-RK-GST W25R,E26K (Homo sapiens) (UniProt Q9NRW3); assay: competition with a labelled probe; settings: 500-fold excess over probe, 8 nM protein, disrupted the complex
T2 sequence (looked up, limits assumed): T1 sequence (looked up, limits assumed) with W25R, E26K

## GGATTGGTTGGTTATTTGTATAAGGAAGGTGGATTGAAGGTTCAAGAAGGTGATGGAAGTTATGTTTGGTAGATTGATGG [unlabeled 80-nt TTCA deamination substrate (competitor)]
hA3C-GST (Homo sapiens)
  binding result: binds
[1]
  binding result: binds
